Anti-infective test results gathered from many reports (values: NIAID ChemDB through PubChem).

All rows: tests in culture; species: HIV-1; read-out: inhibition

Percent inhibition refers to the dose given; in toxicity tests it is the harm to the cells. An empty or dashed field is not shown. Lines come from different laboratories, so protocols vary.

SMILES	cell line	tested at	changes	conditions	strain or isolate	method	value
O=c1oc2cc(O)cc(O)c2c(O)c1-c1coc2c1c(=O)oc1cc(O)cc(O)c12	MT-4	0.1 µM			IIIB	MTT	55%
CCOC(=O)C1=C(C)N(c2ccc(C(=O)O)cc2)C(C)=C(C(=O)OCC)C1c1cccs1	HEK293T + MT-2	100 µM			NL4-3	p24 / ELISA	50.12%
S=C1N=C(Cl)C2(NN1)c1ccccc1-c1ccccc12	CEM	20 µM			RF	cytopathic effect / XTT	32.82%
O=C(O)CNP(=O)(O)OC[C@H]1O[C@@H](n2ccc(N3CCCC3)nc2=O)CC1O	CEM-SS	10 µM			IIIB	visual reading / cell fusion	13.1%
NC(N)=NCCNS(=O)(=O)c1cccc2cnccc12		16.7 µM			LAI		2%
Nc1ccn([C@@H]2O[C@H](CO)C=C2F)c(=O)n1		1.8 µM	RT-M184V			cytopathic effect / MTT	90%
COC(=O)C[C@H](O)C(CC(C)C)NC(=O)[C@H](C)NC(=O)C[C@H](O)[C@H](Cc1ccc(O)cc1)NC(=O)[C@@H](NC(=O)[C@H](Cc1ccc(O)cc1)NC(=O)OCc1ccccc1)C(C)C	MT-4	40 µM				syncytia	0%
CCCCCCCCCCCCC(Br)C(=O)OC[C@H]1O[C@@H](n2cc(C)c(=O)[nH]c2=O)CC1O	CEM	2 µM				cytopathic effect / XTT	22.2%
CC(C)C[C@H](NC(=O)[C@@H](NC(=O)[C@H](Cc1c[nH]c2ccccc12)NC(=O)C(F)(F)F)C(C)C)[C@@H](O)CC(=O)N[C@H](C(=O)N[C@H](C(=O)OCc1ccccc1)C(C)C)C(C)C	MT-4	40 µM				syncytia	0%
Cc1cn([C@H]2C[C@H](O)[C@@H](COC(=O)CCCCCCCCCCN=[N+]=[N-])O2)c(=O)[nH]c1=O	CEM	20 µM				cytopathic effect / XTT	16.3%
CCOP(=O)(CCn1cc(N2C=CC(NC(C)=O)NC2=O)nn1)OCC	CEM	100 µM			IIIB		0%
O=C(CSC1=NNC2(C(=O)N1)c1ccccc1-c1ccccc12)NC(=S)Nc1ccccc1	CEM	6.3 µM				cytopathic effect / XTT	21.65%
Cc1cc(=O)c2c(O)c3c(O)cc(O)c4c5c(O)cc(O)c6c(O)c7c(=O)cc(C)c8c1c2c(c34)c(c65)c78	CEM	1 µg/mL		14 d		ELISA	97%
NCC(=O)N1CCC[C@H]1C(=O)NCC(N)=O	H9	100 µM			SF2	p24	98%
CC(S)C(=O)NCC(=O)O	H9	600 µg/mL				syncytia	93%
CC(=O)N(O)CCCCCNC(=O)CCC(=O)N(O)CCCCCNC(=O)CCC(=O)N(O)CCCCCN	H9	10 µM			IIIB	p24	74%
COc1ccnc2[nH]cc(C(=O)C(=O)N3CCN(C(=O)c4ccccc4)C[C@H]3C)c12	HEK293T + MT-2	100 µM			NL4-3	p24 / ELISA	100%
OC[C@H]1O[C@@H](n2cnc3c(N4CC[C@H](O)C4)ncnc32)C[C@H]1O	CEM-SS	10 µM			IIIB	visual reading / cell fusion	0%
Nc1ncnc2c1ncn2[C@@H]1O[C@H](COP(=O)([O-])O)[C@@H](O)[C@H]1OP(=O)([O-])OC[C@@H]1C[C@@H](OP(=O)([O-])OC[C@@H]2C[C@@H](O)[C@H](n3cnc4c(N)ncnc43)O2)[C@H](n2cnc3c(N)ncnc32)O1	H9	1 µM			IIIB	p24	55%
CC(=O)N[C@H](C(=O)N[C@@H](Cc1ccccc1)[C@@H](O)CN(CC1CCCCC1)NC(=O)[C@@H](NC(C)=O)C(C)C)C(C)C	MT-2	1 µM			MN	RT activity	90%
NCCNS(=O)(=O)c1cccc2c(Cl)cccc12		16.7 µM			LAI		28%
COC(=O)C[C@H](O)C(CC(C)C)NC(=O)[C@H](C)NC(=O)CC(O)C(CC1CCCCC1)NC(=O)[C@@H](NC(=O)[C@H](Cc1ccc(O)cc1)NC(=O)OCc1ccccc1)C(C)C	MT-4	40 µM				syncytia	0%
Cc1cn([C@H]2C[C@@H](O)[C@@H](CO)O2)c(=O)nc1N1CCCC1	CEM-SS	10 µM			IIIB	XTT / cell fusion	0%
Nc1nc(=O)n([C@H]2C=C[C@@H](OCP(=O)(O)O)O2)cc1I	CEM	100 µg/mL			IIIB	cytopathic effect / XTT	39%
Cc1cn([C@H]2CC=C[C@@H](CO)O2)c(=O)[nH]c1=O	MT-4	100 µM			IIIB	ELISA	0%
O=C1N=C2SC=C(NC(=S)Nc3ccccc3)N2NC12c1ccccc1-c1ccccc12	CEM	63 µM			RF	cytopathic effect / XTT	35.23%
C=CC[C@H](NC(=O)[C@H](Cc1ccccc1)NS(=O)(=O)N1CCOCC1)C(=O)N[C@@H](CC1CCCCC1)[C@@H](O)C[C@H](C(=O)NCCCC)C(C)C	CEM	4.3 µM			IIIB	cytopathic effect / XTT	97%
OC[C@H]1O[C@@H](n2cnc3c(N4CC[C@@H](F)C4)ncnc32)C[C@H]1O	CEM-SS	10 µM			IIIB	XTT / cell fusion	0%
NC1=NNC2(C(=O)N1)c1ccccc1-c1ccccc12	CEM	200 µM			RF	cytopathic effect / XTT	17%
O=S(=O)(c1ccc(Cl)c2ccncc12)N1CCNCC1		16.7 µM			LAI		8.25%
O=c1ccn([C@H]2CC=C[C@@H](CO)O2)c(=O)[nH]1	MT-4	100 µM			IIIB	ELISA	0%
CC(C)CN(C[C@@H](O)[C@H](Cc1ccccc1)NC(=O)O[C@H]1CO[C@H]2OCC[C@H]21)S(=O)(=O)c1ccc2nc(NC3CCN(C4CCCC4)CC3)sc2c1	PBMC	5 nM			SF2	p24	90%
Nc1ncnc2c1ncn2[C@@H]1O[C@H](COP(=O)([O-])O[C@@H]2C[C@@H](COP(=O)([O-])O[C@@H]3C[C@@H](COP(=O)([O-])O)O[C@H]3n3cnc4c(N)ncnc43)O[C@H]2n2cnc3c(N)ncnc32)[C@@H](O)[C@H]1O	H9	1 µM			IIIB	p24	10%
c1cc(CNCCCNC2CCCCC2)cc(CNc2nc(N3CCNCC3)nc3nc[nH]c23)c1	TZM-bl	10 µM			IIIB	luciferase	0%
NC1=NNC2(C(=O)N1)c1ccccc1-c1ccccc12	CEM	200 µM				cytopathic effect / XTT	17%
CO[C@]1(C)OC[C@H]([C@@H]2CC(=O)C[C@H](c3ccccc3)C23C(=O)OC(C)(C)OC3=O)O[C@@]1(C)OC	SupT1	10 µM			NL4-3	MTT	>50%
C=CCNC(=O)NC1=CSC2=NC(=O)C3(NN12)c1ccccc1-c1ccccc13	CEM	20 µM				cytopathic effect / XTT	12.38%
COC(=O)[C@@H](NC(=O)[C@@H](NC(=O)C[C@H](O)[C@H](CC(C)C)NC(=O)[C@@H](NC(=O)[C@H](Cc1c[nH]c2ccccc12)NC(=O)OCc1ccccc1)C(C)C)C(C)C)C(C)C	MT-4	40 µM				syncytia	0%
NCC(=O)N1CCC[C@H]1C(=O)NCC(=O)O	H9	100 µM			SF2	p24	38%
CC(=O)NC1C=CN(c2cn(C(O)P(=O)(O)O)nn2)C(=O)N1	CEM	100 µM			IIIB		0%
Nc1ncnc2c1ncn2C1OC(COP(=O)(O)OC2C(O)C(COP(=O)(O)OC3CC(CO)OC3n3cnc4c(N)ncnc43)OC2n2cnc3c(N)ncnc32)CC1O	H9	1 µM			IIIB	p24	75%
C[n+]1cn(-c2cn(C(O)CCCP(=O)(O)O)nn2)c(=O)[nH]c1=O	CEM	100 µM			IIIB		0%
NCC(=O)O	H9	100 µM			SF2	p24	0%
NCCSSCCN	PBL	200 µM			IIIB	p24	100%
C=CCNC(=O)NC1=CSC2=NC(=O)C3(NN12)c1ccccc1-c1ccccc13	CEM	20 µM			RF	cytopathic effect / XTT	12.38%
CCCCCCCCCCCCC(N=[N+]=[N-])C(=O)OC[C@H]1O[C@@H](n2cc(C)c(=O)[nH]c2=O)C[C@@H]1O	CEM	2 µM				cytopathic effect / XTT	9.6%
O=C1CSC2=NC(=O)C3(NN12)c1ccccc1-c1ccccc13	CEM	63 µM				cytopathic effect / XTT	24.42%
OC[C@H]1O[C@@H](n2cnc3c(N4C[C@H](O)[C@@H](O)C4)ncnc32)C[C@H]1O	CEM-SS	10 µM			IIIB	visual reading / cell fusion	0%
Nc1ncnc2c1ncn2C1OC(COP(=O)(O)OC2CC(COP(=O)(O)OC3CC(CO)OC3n3cnc4c(N)ncnc43)OC2n2cnc3c(N)ncnc32)CC1O	H9	1 µM			IIIB	p24	80%
Cc1cn([C@H]2C[C@H](O)[C@@H](COC(=O)CCCCCCCCCCBr)O2)c(=O)[nH]c1=O	CEM	2 µM				cytopathic effect / XTT	10.4%
CCOP(=O)(CC(O)n1cc(-n2ccc(=O)[nH]c2=O)nn1)OCC		100 µM			IIIB		0%
Nc1ncnc2c1ncn2[C@@H]1O[C@H](COP(=O)([O-])O)[C@@H](O)[C@H]1OP(=O)([O-])OC[C@H]1O[C@@H](n2cnc3c(N)ncnc32)[C@H](OP(=O)([O-])OC[C@@H]2C[C@@H](O)[C@H](n3cnc4c(N)ncnc43)O2)[C@@H]1O	H9	1 µM			IIIB	p24	10%
O=C1N=C2SC=C(NC(=S)Nc3ccccc3)N2NC12c1ccccc1-c1ccccc12	CEM	63 µM				cytopathic effect / XTT	35.23%
O=P(O)(O)OP(=O)(O)OP(=O)(O)OP(=O)(O)O	MOLT-4/MOLT-3	160 µg/mL			IIIB	syncytia	12.5%
O=S(=O)(c1cccc2cnccc12)N1CCCNCC1		16.7 µM			LAI		37.5%
Cc1ccc(-c2ccc3c(c2)C=C(C(=O)Nc2ccc(C[N+](C)(C)C4CCOCC4)cc2)CCC3)cc1	PBMC	1 µM			Du368 CLADE C	p24	92%
O=c1ccn([C@H]2C=CC[C@@H](CO)O2)c(=O)[nH]1	MT-4	100 µM			IIIB	ELISA	0%
CC[C@H](NC(=O)[C@@H](NC(=O)[C@H](Cc1c[nH]c2ccccc12)NC(=O)OCc1ccccc1)C(C)C)[C@@H](O)CC(=O)N[C@@H](C)C(=O)NC(CC(C)C)[C@@H](O)CC(=O)OC	MT-4	40 µM				syncytia	0%
CC1CN(S(=O)(=O)c2cccc3cnccc23)CCN1		16.7 µM			LAI		8.3%
Nc1ncnc2c1ncn2[C@@H]1O[C@H](COP(=O)([O-])O[C@@H]2C[C@@H](COP(=O)([O-])O)O[C@H]2n2cnc3c(N)ncnc32)[C@@H](O)[C@H]1OP(=O)([O-])OC[C@@H]1C[C@@H](O)[C@H](n2cnc3c(N)ncnc32)O1	H9	1 µM			IIIB	p24	75%
COC(=O)C1=C(C)N(c2ccc(C(=O)O)cc2)C(C)=C(C(=O)OC)C1/C=C/c1ccccc1	HEK293T + MT-2	100 µM			NL4-3	p24 / ELISA	30.57%
OC[C@H]1O[C@@H](n2cnc3c(N4C[C@@H](O)[C@@H](O)C4)ncnc32)C[C@H]1O	CEM-SS	10 µM			IIIB	visual reading / cell fusion	2%
CC[C@@H]1C=CC[C@H](n2cnc3c(N)ncnc32)O1	MT-4	100 µM			IIIB	ELISA	0%

9 of the rows above, restated:

SMILES,cell line,tested at,changes,conditions,strain or isolate,method,value
Cc1cn([C@H]2C[C@@H](O)[C@@H](CO)O2)c(=O)nc1N1CCCC1,CEM-SS,10 µM,,,IIIB,XTT / cell fusion,0%
O=c1oc2cc(O)cc(O)c2c(O)c1-c1coc2c1c(=O)oc1cc(O)cc(O)c12,MT-4,0.1 µM,,,IIIB,MTT,55%
C=CCNC(=O)NC1=CSC2=NC(=O)C3(NN12)c1ccccc1-c1ccccc13,CEM,20 µM,,,RF,cytopathic effect / XTT,12.38%
Nc1ncnc2c1ncn2[C@@H]1O[C@H](COP(=O)([O-])O[C@@H]2C[C@@H](COP(=O)([O-])O)O[C@H]2n2cnc3c(N)ncnc32)[C@@H](O)[C@H]1OP(=O)([O-])OC[C@@H]1C[C@@H](O)[C@H](n2cnc3c(N)ncnc32)O1,H9,1 µM,,,IIIB,p24,75%
CCOP(=O)(CCn1cc(N2C=CC(NC(C)=O)NC2=O)nn1)OCC,CEM,100 µM,,,IIIB,,0%
NCCSSCCN,PBL,200 µM,,,IIIB,p24,100%
OC[C@H]1O[C@@H](n2cnc3c(N4C[C@H](O)[C@@H](O)C4)ncnc32)C[C@H]1O,CEM-SS,10 µM,,,IIIB,visual reading / cell fusion,0%
Cc1cn([C@H]2C[C@H](O)[C@@H](COC(=O)CCCCCCCCCCN=[N+]=[N-])O2)c(=O)[nH]c1=O,CEM,20 µM,,,,cytopathic effect / XTT,16.3%
O=C(O)CNP(=O)(O)OC[C@H]1O[C@@H](n2ccc(N3CCCC3)nc2=O)CC1O,CEM-SS,10 µM,,,IIIB,visual reading / cell fusion,13.1%